Source: PubChem BioAssay AID624099 (ICCB-Longwood, 2012)
Shown is an unselected part of about 21,000 reagents tested. 497 of them (2.4%) were called active. 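Higher z means weaker E2 silencing; only reporter increases were scored, and knock-downs that hurt cell survival may mask genuine repressor factors.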

- Purpose: 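Human genes that papillomavirus E2 requires to repress the HPV18 LCR promoter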 (primary screen)
- System: human C33A cervical carcinoma cells (HPV-negative) stably expressing BPV1 E2 and an HPV18 LCR luciferase reporter
- Reagent: siRNA pool against human genes, 40 nM
- Duration: 72 h
- Measurement: 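Per-well luciferase luminescence, z-scored on each plate against the plate mean and SD with control wells left out, then averaged across three replicate plates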
- Scale: mean z-score and z-score: higher = stronger reporter signal, weaker E2 silencing
- Call rule: 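Mean z ≥ 2 together with z ≥ 2 in two or more of the three replicates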

target gene	mean z-score	z-score, replicate A	z-score, replicate B	z-score, replicate C	call
THOC7	-0.48	-0.4	-0.54	-0.51	inactive
MSH6	-0.2	-0.07	-0.42	-0.13	inactive
HYKK	0.53	0.93	-0.08	0.74	inactive
ERVW-1	-0.34	-0.4	-0.42	-0.19	inactive
TMSB10	-0.73	-0.45	-1.04	-0.7	inactive
FKTN	-1.51	-1.6	-1.69	-1.23	inactive
KCNK4	-0.02	-0.57	0.39	0.13	inactive
DCAF5	1.03	1.15	0.81	1.15	inactive
MCEE	0.08	-0.16	0.16	0.23	inactive
NHSL3	1.77	1.31	1.83	2.16	inactive
SEPSECS	-0.17	-0.45	0.13	-0.18	inactive
B3GALT6	-1.08	-1.09	-1.15	-1.01	inactive
CIRBP-AS1	0.11	0.42	0.14	-0.23	inactive
FNBP1	0.16	0.06	0.05	0.37	inactive
OR52H1	-0.33	-0.45	-0.06	-0.49	inactive
BIRC6	0.56	0.43	0.82	0.44	inactive
MPHOSPH6	0.24	-0.12	0.48	0.36	inactive
INTS10	-0.07	-0.15	-0.69	0.62	inactive
CHIA	0.74	0.48	0.72	1.02	inactive
ABHD13	0.65	0.68	0.68	0.58	inactive
TPD52	-0.79	-0.18	-1.03	-1.17	inactive
OAT	-1.35	-1.24	-1.31	-1.49	inactive
HOXA9	0.83	0.94	0.41	1.15	inactive

An excerpt from above, showing only “z-score, replicate C”.
ABHD13 = 0.58
TPD52 = -1.17
OAT = -1.49
HOXA9 = 1.15
